Test system: human foreskin fibroblast cells
Test: Cytotoxicity assay, CellTiter-Glo
Conditions: cytotoxicity EC50 divided by P. falciparum antiparasitic EC50

Compound	S.I. (specificity index)
CCc1nccn1C(=O)c1cnn2c(C(F)F)cc(-c3ccccc3)nc12 [SMDC158691, CCc1nccn1C(=O)c2cnn3c(cc(nc23)c4ccccc4)C(F)F]	8
CC(Oc1cccc(Cl)c1)C(=O)Nc1sc2c(c1C(N)=O)CCCCC2 (stereo not drawn) [SMDC106517, CC(Oc1cccc(Cl)c1)C(=O)Nc2sc3CCCCCc3c2C(=O)N]	11
N#CC1=C2SCN(Cc3ccco3)CN2C(=O)CC1c1cccc(OCc2ccccc2)c1 (stereo not drawn) [SMDC170136, O=C1CC(C(=C2SCN(Cc3occc3)CN12)C#N)c4cccc(OCc5ccccc5)c4]	13
COc1cccc(C2CC(=O)N3CN(CCc4sccc4C)CSC3=C2C#N)c1 (stereo not drawn) [SMDC178790, COc1cccc(c1)C2CC(=O)N3CN(CCc4sccc4C)CSC3=C2C#N]	50
Brc1ccc(cc1)C(=O)c2nocc2C(=O)c3cccnc3 [SMDC112054]	10
Cc1ccsc1CCN1CSC2=C(C#N)C(c3ccc(Cl)cc3)CC(=O)N2C1 (stereo not drawn) [SMDC178801, Cc1ccsc1CCN2CSC3=C(C#N)C(CC(=O)N3C2)c4ccc(Cl)cc4]	1.7
COc1cc(/C=C2/NC(=O)N(Cc3ccccc3F)C2=O)cc(Br)c1O [SMDC103222, COc1cc(\C=C/2\NC(=O)N(Cc3ccccc3F)C2=O)cc(Br)c1O]	17
CCOc1ccc(C2CC(=O)N3CN(C(C)c4ccccc4)CSC3=C2C#N)cc1 (stereo not drawn) [SMDC178822, CCOc1ccc(cc1)C2CC(=O)N3CN(CSC3=C2C#N)C(C)c4ccccc4]	3.6
N#CC1=C2SCN(C3CCCCC3)CN2C(=O)CC1c1cccc2ccccc12 (stereo not drawn) [SMDC170156, O=C1CC(C(=C2SCN(CN12)C3CCCCC3)C#N)c4cccc5ccccc45]	8
